Results on one compound are retold here after US20120142682A1, “ANT[…] INHIBITING BACTERIAL MONO-ADP-RIBOSYLT[…]” (UNIVERSITY OF GUELPH, priority 2010, published 2012).

Protein sequences, listed by entry. Tags and fused reporters are not part of them. Residues count along the entry.
UniProt Q5EK40, 33-666 limits assumed: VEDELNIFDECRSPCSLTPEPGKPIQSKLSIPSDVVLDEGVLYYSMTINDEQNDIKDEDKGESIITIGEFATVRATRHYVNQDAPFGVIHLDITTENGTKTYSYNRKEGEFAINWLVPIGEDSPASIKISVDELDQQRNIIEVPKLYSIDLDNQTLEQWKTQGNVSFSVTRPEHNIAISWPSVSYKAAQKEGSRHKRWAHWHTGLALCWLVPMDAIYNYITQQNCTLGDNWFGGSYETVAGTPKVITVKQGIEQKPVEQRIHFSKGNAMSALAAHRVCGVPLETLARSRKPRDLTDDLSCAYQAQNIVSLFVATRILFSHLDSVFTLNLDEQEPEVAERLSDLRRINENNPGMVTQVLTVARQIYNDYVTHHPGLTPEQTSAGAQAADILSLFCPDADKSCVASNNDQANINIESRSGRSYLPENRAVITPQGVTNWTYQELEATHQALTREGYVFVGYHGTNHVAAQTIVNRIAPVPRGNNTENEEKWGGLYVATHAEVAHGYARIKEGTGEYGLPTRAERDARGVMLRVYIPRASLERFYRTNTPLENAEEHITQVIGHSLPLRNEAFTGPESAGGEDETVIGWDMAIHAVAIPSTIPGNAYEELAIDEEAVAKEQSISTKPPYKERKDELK
UniProt P11439, 430-638 limits assumed: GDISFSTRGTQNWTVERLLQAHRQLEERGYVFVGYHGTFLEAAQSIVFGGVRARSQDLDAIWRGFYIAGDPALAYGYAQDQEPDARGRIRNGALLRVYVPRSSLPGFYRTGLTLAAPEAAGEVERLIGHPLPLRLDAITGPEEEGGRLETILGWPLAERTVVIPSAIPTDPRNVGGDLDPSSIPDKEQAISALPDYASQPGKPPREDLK

In assay [1] the test system is C38 cells in the presence of 650 ng/mL of ExoA. Nature of the assay: Determination of half-maximal effective concentration (EC50) in C38 cells. Conditions: 650 ng/ml ExoA (10-times LD50), 96 h; NAP and V30 with 0.5% DMSO.
The target in a further assay is cholix toxin (Vibrio cholerae, UniProt Q5EK40). The assay is described as follows: IC50 determination for inhibitory compounds (ADP-ribosyltransferase activity, ε-NAD, eEF2). The class given is biochemical. Conditions: calculated from IC50 (Cheng-Prusoff); [NAD+] 300 μM, KM 45 μM.
Assay [2] concerns ExoA intoxicated C38 cells. The assay is described as follows: Inhibitor cytoprotection in mammalian cells (increase of ExoA LD50). To be noted: compound 50 μM; scored by ability to increase the LD50 of ExoA.
Assay [3] concerns Saccharomyces cerevisiae cells expressing the catalytic domain of P. aeruginosa ExoA (ExoAc). The assay is described as follows: Yeast-based compound screen. Conditions: compound 50 μM; w303 strain; growth restored.
For another assay, the target named is WT ExoAc (Pseudomonas aeruginosa, UniProt P11439). Nature of the assay: Binding affinity by quenching of intrinsic Trp fluorescence. Also on record: species or system P. aeruginosa. To be noted: first (high affinity) value where two are printed.

Regarding `O=C(CCN1CCCCC1)N1CCc2[nH]c(=O)c3cc(F)ccc3c2C1`, the EC50 in assay [1] is 3400 nM. The Ki on cholix toxin is 80 nM. In addition, the “Protection in C38 cells” value in assay [2] is on record as “++++ (Compounds capable of protecting C38 cells from ExoA concentrations greater than 1000 ng/mL were scored (++++))”. Moreover, the “Protection in Yeast” value in assay [3] is “− (Compounds showing less than 5% growth were scored (−))”. The Kd on WT ExoAc was found to be 1100 nM.
